Data published in paper PMC5460201, “Bacterial protease uses distinct thermodynamic signatures for substrate recognition” (Scientific Reports, 2017).

Columns and labels:
[1] = target: Porphyromonas endodontalis dipeptidyl peptidase 11, PeDPP11_(22-717) S652A (Porphyromonas endodontalis) (UniProt F8WQK8); experiment: ITC
[2] = target: Porphyromonas endodontalis dipeptidyl peptidase 11, PeDPP11_(22-717) S652A (Porphyromonas endodontalis) (UniProt F8WQK8); experiment: ITC; 25 °C (298 K)
[3] = target: Porphyromonas endodontalis dipeptidyl peptidase 11, PeDPP11_(22-717) S652A (Porphyromonas endodontalis) (UniProt F8WQK8); experiment: ITC; 5 °C (278 K)
[4] = target: Porphyromonas endodontalis dipeptidyl peptidase 11, PeDPP11_(22-717) S652A (Porphyromonas endodontalis) (UniProt F8WQK8); experiment: ITC; 20 °C (293 K)

Row | Substance | Kd [1] | Kd [2] | Kd [3] | Kd [4]
1 | dipeptide LD | 1800 nM | 1800 nM | – | –
2 | substrate peptide Leu-Asp-Val-Trp | 2800 nM | 2800 nM | 17300 nM | 5600 nM
